Reference: article PMC3842914, “Meleagrin, a New FabI Inhibitor from Penicillium chryosogenum with at Least One Additional Mode of Action” (PLoS ONE, 2013)

How the values were obtained:
Conditions in all cases: exposure 4× MIC
S. aureus RN4220 = assay type: cell-based, Staphylococcus aureus
S. aureus KCTC 1916 = assay type: cell-based, Staphylococcus aureus
E. coli KCTC 1924 = assay type: cell-based

## Oc1cc(Cl)ccc1Oc1ccc(Cl)cc1Cl [Triclosan, reference compound]
S. aureus RN4220
  Frequency of resistance: 3.30±0.13×10^−8
S. aureus KCTC 1916
  Frequency of resistance: 2.58±0.04×10^−9
E. coli KCTC 1924
  Frequency of resistance: 9.07±0.08×10^−8
